The data set addresses ArgR (Listeria monocytogenes 10403S) (UniProt A0A0H3GK31). Put plainly: EMSA. Particulars: 50 mM Tris-HCl pH 8.0, 250 mM NaCl, 5.0 mM MgCl2, 2.5 mM DTT, 2.5 mM EDTA, 20% glycerol, 200 ng DNA, 30 min at room temperature, native 5% PAGE in 0.5x TAE, recombinant protein, residues 1-149, protein details: N-terminal His (pET30a(+) fusion), label: none (ethidium bromide stain), probe letters rebuilt from the primers and the genome. Background: In EMSA bound probe runs differently from free probe, usually more slowly.

[1] abbreviates: stronger than sigB and arcA promoters.
Where [2] appears, read: binds, weaker than argC and argG promoters.

The comparison behind a weaker result is the experiment's own reference, which may not be listed here.

Regarding “AAATCGAGCATTACGAAAGCTTCACAGATTTCGATGCGCTAATTGCAAAAGCTTTAGATAACATCGAAACCATTTCTGTAAATGTAGCGGAAACTGCGCAAGTGAAAGATGAGTTCGCTGATTTATTTTAAGATTAACCGTTTATCCTAGAAAAGGATAAACGGTTTTTTGTATATTATATACATAATAAATAACTTAAAATGCATAAAATAGTTTTAAATATTAATAAAAAACCATTTGACATTATAAATATACATCATTATAATGAAAAGTATCATTTAATAATTAACGGGGAGGGGTTAGGATGAAAGTTTCAATCATTGGCGCGACGGGGTATGGAGGACTTGAGCTAATTCGCTTGCTTCATCAACACTCTTCGGTAGACATAGCGACGTTACATAGTTTTTCCGCTCAAGCAGAAACGTTAGCAACTTTTTATCCACATTTAAAAGATTTAGCAGTTAGCCC (double strand) [argC promoter]”, the binding result under setting [1] is on record as “binds”.

Turning to “ATATCGCGAATCTACGTCGGATAATGGTGACGTGTTTTTCACAAATTCCTGTGAAGCCTTATCTAAATTCTCAAGAACCTCAGGATTATAATCTTTTTTCCCAACCGCTTTTTTGTAAATAAAGAAAACGATTAATAATGGAAGTAGAATAATCCCAGCAAAACCGATAGCGATCCATTTTATTGTATTTTTCACATTCGCTCAACTCCTTCAATATAACTTCAATAACAAGTATAGCAGTTTTATGAACAGGAACCAATTTATTACTATTTGAAATGATTATTTTTATTTAGAAATGTATTTTTAAGCATAATTATGAATAAATGAAAATAAAAAGGTTGATATCTAAAAGCATCGATGTTAATATAAATACAAATGTTTGTATATTTATGAATAGGGGATGTTTAAAATGGCGAAAGAAAAAATCGTATTAGCTTACTCAGGTGGGTTAGATACTTCTGTGGCAATTCAGTGGTTAGTAGAATCAGGTTATGAAGTTATTGCATGTTGCTTGGATGTTGG (double strand) [argG promoter]”, the binding result under setting [1] is on record as “binds”.

For “GATCAATTAGTTAAAATGCAAAACTTTGAGTTGCATGATGACTTTACGCTTATTTGTATTAAGCGAACTAAATAAGAAGAAGTGAAGACGTACCTCATTCTTTAGAGAGCATTTACTGGTGAGTAAACGTATTTAAAGAGTGGAGCGTTTTTATTTTTGAATGTTTTAATTTTATTAGTTAGGGTAAAATCGACAGTATACTTAAAATTAGATGGGGTGAAGTGATGAATATTAGTATAGAAATAAAAGAACGTGATACTGACCACATAGACATATTTGTTGCTGGGGAGATCGATGCTTATACAGCGCCAAAGGTAA (double strand) [sigB promoter]”, the binding result under setting [2] was “binds more weakly”.

Regarding “TTCCTTCTGCATCATTTTTAAATACGGTATATCATCAAATAATAAAGATTCTAGGTATTCTGGTGTGATATTTTCGAGTTCAGAACCCGGCCTCTTTACAAGAACTGTTTGGAGTTTGCCAATTTCAGATGTAATATTCAATGCTTGTTCCATTTTCATCACCTCTTCCTAACTAATTACCCCAAAAGTTTGTCATGTATGCGAGAGATTTCCCGGGAAATAAAAAAAAGCACAGAGATTATTCTGCGCTTTTCTTGTCCATTTTACTTTTAATAAATGAAACAACCATTGGGATAACGGAAACTACAATAATTCCGATTACTACTAACGAGAAGTTGTCTTTAACAATTGGGAAATTGCCGAAGAAGTATCCTGCAAGCGTGCAAAGCAATACCCAGACTGTTGCTCCTAAAATATTATAATTTAAGAAATAGCGATAATTCATACGGCTTGCTCCA (double strand) [arcA promoter]”, the binding result under setting [2] is listed as “binds more weakly”.

Values taken from PMC5291005, “Listeria monocytogenes 10403S Arginine Repressor ArgR Finely Tunes Arginine Metabolism Regulation under Acidic Conditions” (Frontiers in Microbiology, 2017).
